Taken from: PubChem BioAssay AID624099 (ICCB-Longwood, 2012)
Aim: 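Host factors E2 relies on to silence an HPV18 LCR reporter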 (primary screen). System: human C33A cervical carcinoma cells (HPV-negative) stably expressing BPV1 E2 and an HPV18 LCR luciferase reporter. Reagents: siRNA pool against human genes, 40 nM. Time to read-out: 72 h. Read-out: 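HPV18 LCR reporter light per well, converted to plate-wise z-scores that exclude control wells, and averaged over triplicate plates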. Scale: mean z-score and z-score: higher = stronger reporter signal, weaker E2 silencing. Rule for the call: 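Hit if mean z-score reaches 2 and two or more of three replicate z-scores also reach 2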.
Shown is a random part of about 21,000 reagents. 497 of them (2.4%) count as active. 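Higher z means weaker E2 silencing; only reporter increases were scored, and knock-downs that hurt cell survival may mask genuine repressor factors.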 Reagent sequences are not shown.

CHRNB1 (GeneID 1140): mean z-score = 0.11; z-score, replicate A = 0.09; z-score, replicate B = 0; z-score, replicate C = 0.24; call = inactive
SHOX (GeneID 6473): mean z-score = 0.05; z-score, replicate A = -0.24; z-score, replicate B = 0.14; z-score, replicate C = 0.25; call = inactive
PTPRO (GeneID 5800): mean z-score = -0.04; z-score, replicate A = 0.02; z-score, replicate B = -0.07; z-score, replicate C = -0.07; call = inactive
HOXB7 (GeneID 3217): mean z-score = -0.08; z-score, replicate A = 0.07; z-score, replicate B = -0.03; z-score, replicate C = -0.29; call = inactive
MIR503HG (GeneID 84848): mean z-score = 2.18; z-score, replicate A = 2.09; z-score, replicate B = 2.25; z-score, replicate C = 2.21; call = active
RGS7BP (GeneID 401190): mean z-score = 0.69; z-score, replicate A = 0.65; z-score, replicate B = 0.58; z-score, replicate C = 0.85; call = inactive
CREG2 (GeneID 200407): mean z-score = -0.75; z-score, replicate A = -0.86; z-score, replicate B = -1.07; z-score, replicate C = -0.34; call = inactive
ASRGL1 (GeneID 80150): mean z-score = -0.49; z-score, replicate A = -0.19; z-score, replicate B = -1.13; z-score, replicate C = -0.14; call = inactive
UROD (GeneID 7389): mean z-score = 0.4; z-score, replicate A = 0.61; z-score, replicate B = 0.18; z-score, replicate C = 0.4; call = inactive
GOLGA1 (GeneID 2800): mean z-score = 0.33; z-score, replicate A = 0.27; z-score, replicate B = 0.39; z-score, replicate C = 0.32; call = inactive
XRRA1 (GeneID 143570): mean z-score = -0.5; z-score, replicate A = -0.55; z-score, replicate B = -0.61; z-score, replicate C = -0.35; call = inactive
C4orf54 (GeneID 285556): mean z-score = -0.08; z-score, replicate A = 0; z-score, replicate B = -0.33; z-score, replicate C = 0.09; call = inactive
RNASE10 (GeneID 338879): mean z-score = -1.08; z-score, replicate A = -0.94; z-score, replicate B = -1.33; z-score, replicate C = -0.99; call = inactive
MAN2A2 (GeneID 4122): mean z-score = 0.98; z-score, replicate A = 1.34; z-score, replicate B = 0.53; z-score, replicate C = 1.06; call = inactive
CASC2 (GeneID 255082): mean z-score = -0.51; z-score, replicate A = -0.23; z-score, replicate B = -0.84; z-score, replicate C = -0.47; call = inactive
FKBP2 (GeneID 2286): mean z-score = 2.96; z-score, replicate A = 3.05; z-score, replicate B = 3.31; z-score, replicate C = 2.51; call = active
ACP5 (GeneID 54): mean z-score = -1.35; z-score, replicate A = -1.34; z-score, replicate B = -1.38; z-score, replicate C = -1.34; call = inactive
LOC392993 (retired record) (GeneID 392993): mean z-score = 0.11; z-score, replicate A = 0.4; z-score, replicate B = -0.06; z-score, replicate C = 0; call = inactive
LOC389243 (retired record) (GeneID 389243): mean z-score = 1.07; z-score, replicate A = 1.54; z-score, replicate B = 0.65; z-score, replicate C = 1.02; call = inactive
ZNF574 (GeneID 64763): mean z-score = 0.17; z-score, replicate A = 0.32; z-score, replicate B = 0; z-score, replicate C = 0.18; call = inactive
NCAPD2 (GeneID 9918): mean z-score = 0.07; z-score, replicate A = -0.05; z-score, replicate B = 0.22; z-score, replicate C = 0.03; call = inactive
